Results on 2 molecules are retold here after PMC11094058, “Functional and antigenic characterization of SARS-CoV-2 spike fusion peptide by deep mutational scanning” (Nature Communications, 2024).

The assay has as its target N-terminally biotinylated peptide of SARS-CoV-2 S (808-…-827) (SARS-CoV-2 Wuhan-Hu-1, biotin on the N-terminus). To be noted: both partners purified.

B1: COV44-62 Fab (Fab, V domains shown)
VH: QMQLMQSGAEVKKPGASVTVSCKASGDTFSDYRIHWVRQAPGQGLEWMGRMNPKSGDTNFAQKFQGRVTMTRDMSINTAYMTLSGLTFDDTALYYCASLLIVGGFDPLDDFEVWGQGTMVTISS
VL: QSALTQPPSASGSPGQSVTISCSGTSSDVGGYNFVSWYQHHPGKAPKILIYEVTKRPSGVPDRFSGSKSGNTASLTVSGLQAEDEADYYCSSYGGTNNLLFGGGTKLTVL
B1: the binding result is “binds”.

B2: COV44-79 Fab (Fab, V domains shown)
VH: QVQLVESGGGVVQPGRSLRLSCAASGLTFSGYAMHWVRQAPGKGLEWVAVISRDARNKYYADSVKGRFTISRDNSKKTVYLEMNSLRVEDTAVYYCAILIIPGITEPGSPDALDIWGQGTMVSVSS
VL: DIQMTQSPSSMSASVGDRVTITCRASQDISKWLAWYQQRPGKAPKLLIYAASSLQSGVPSRFSGSGSGTDFTLTISSLQPEDFATYYCQQASSFPWSITFGQGTRLEIR
As to B2, the binding result was “binds”.
